This is an account of results in US20260069656A1, “Nutritive Polypeptides and Formulations Thereof, and Methods of Production and Use Thereof” (Axcella Health Inc., priority 2013, published 2026).

This data set can be described thus: Bacillus subtilis secretion library screening, secreted protein by chip electrophoresis. Particulars: for Secreted protein SEQID-00103: leader peptide fused to SEQID-00103, B. subtilis culture supernatant; for Secreted protein SEQID-00105: leader peptide fused to SEQID-00105, B. subtilis culture supernatant; for Secreted protein SEQID-298: leader peptide fused to SEQID-298, B. subtilis culture supernatant; for Secreted protein SEQID-00338: leader peptide fused to SEQID-00338, B. subtilis culture supernatant; for Secreted protein SEQID-00341: leader peptide fused to SEQID-00341, B. subtilis culture supernatant; for Secreted protein SEQID-00352: leader peptide fused to SEQID-00352, B. subtilis culture supernatant.

Regarding “3921 (MKKKKTWKRFLHFSSAALAAGLIFTSAAPAEA; listed as Bacillus subtilis) [compound 3921]”, the “Secreted protein SEQID-00103” value is recorded as 12.1 mg/1/OD, the “Secreted protein SEQID-00105” value was 135.7 mg/1/OD, the “Secreted protein SEQID-298” value is listed as 4.4 mg/1/OD and the “Secreted protein SEQID-00338” value stood at 9.5 mg/1/OD. Besides, the “Secreted protein SEQID-00341” value stood at 148.14 mg/1/OD. For the same substance, the “Secreted protein, Other SEQ IDs: SEQID-00405” value (leader peptide fused to SEQID-00405, B. subtilis culture supernatant) came to 3.1 mg/1/OD.
For “3922 (MKRSISIFITCLLITLLTMGGMIASPASA; listed as Bacillus subtilis) [compound 3922]”, the “Secreted protein SEQID-00103” value turned out to be 12.1 mg/1/OD, the “Secreted protein SEQID-00105” value was determined as 73.6 mg/1/OD, the “Secreted protein SEQID-298” value turned out to be 7.8 mg/1/OD and the “Secreted protein SEQID-00341” value was 33.9 mg/1/OD. In addition, the “Secreted protein SEQID-00352” value turned out to be 2.7 mg/1/OD.
As for “3923 (MRKKTKNRLISSVLSTVVISSLLFPGAAGA; listed as Bacillus subtilis) [compound 3923]”, the “Secreted protein SEQID-00341” value was 40.4 mg/1/OD.
With “3924 (MRKNRILALFVLSLGLLSFMVTPVSA; listed as Bacillus subtilis) [compound 3924]”, the “Secreted protein SEQID-00338” value worked out at 5.7 mg/1/OD and the “Secreted protein SEQID-00341” value stood at 41.9 mg/1/OD. Further, under “leader peptide fused to SEQID-00398, B. subtilis culture supernatant”, the “Secreted protein, Other SEQ IDs: SEQID-00398” value is recorded as 5.5 mg/1/OD.
With “3926 (MKSCKQLIVCSLAAILLLIPSVSFA; listed as Bacillus subtilis) [compound 3926]”, the “Secreted protein SEQID-00338” value amounted to 3.4 mg/1/OD.
“3927 (MKKKLAAGLTASAIVGTTLVVTPAEA; listed as Bacillus subtilis) [compound 3927]”: the “Secreted protein SEQID-00103” value is given as 14.8 mg/1/OD.
On to “3928 (MKLVPRFRKQWFAYLTVLCLALAAAVSFGVPAKA; listed as Bacillus subtilis) [compound 3928]”, for which the “Secreted protein SEQID-298” value was 10.8 mg/1/OD.
For the substance “3929 (MRNLTKTSLLLAGLCTAAQMVFVTHASA; listed as Bacillus subtilis) [compound 3929]”, the “Secreted protein SEQID-00341” value was 37.5 mg/1/OD.
The same measure, in the same setting: the figure for “3930 (MKRLCLWFTVFSLFLVLLPGKALG; listed as Bacillus subtilis) [compound 3930]” is 64.4 mg/1/OD.
On to “3931 (MKLKTKASIKFGICVGLLCLSITGFTPFFNSTHAEA; listed as Bacillus subtilis) [compound 3931]”, for which the “Secreted protein SEQID-00352” value is listed as 2.8 mg/1/OD.
Regarding “3932 (MKKFPKKLLPIAVLSSIAFSSLASGSVPEASA; listed as Bacillus subtilis) [compound 3932]”, the “Secreted protein SEQID-298” value is 7.9 mg/1/OD.
For the substance “3933 (MKKRKRRNFKRFIAAFLVLALMISLVPADVLA; listed as Bacillus subtilis) [compound 3933]”, the “Secreted protein SEQID-00338” value was 7 mg/1/OD and the “Secreted protein SEQID-00352” value was 2.14 mg/1/OD.
As for “3934 (MFKFKKNFLVGLSAALMSISLFSATASA; listed as Bacillus subtilis) [compound 3934]”, the “Secreted protein SEQID-00103” value turned out to be 13.4 mg/1/OD, the “Secreted protein SEQID-00105” value came to 114.4 mg/1/OD, the “Secreted protein SEQID-298” value came to 4.3 mg/1/OD and the “Secreted protein SEQID-00338” value was determined as 9.8 mg/1/OD. For the same substance, the “Secreted protein SEQID-00341” value was found to be 83.3 mg/1/OD.
“3935 (MKRMIVRMTLPLLIVCLAFSSFSASARA; listed as Bacillus subtilis) [compound 3935]”: the “Secreted protein SEQID-00352” value is on record as 0.69 mg/1/OD.
For the substance “3936 (MKRITINIITMFIAAAVISLTGTAEA; listed as Bacillus subtilis) [compound 3936]”, the “Secreted protein SEQID-00341” value amounted to 61.7 mg/1/OD.
Turning to “3937 (MRKKRVITCVMAASLTLGSLLPAGYASA; listed as Bacillus subtilis) [compound 3937]”, the “Secreted protein SEQID-00105” value is on record as 135.6 mg/1/OD.
As to “3938 (MKKKQVMLALTAAAGLGLTALHSAPAAKA; listed as Bacillus subtilis) [compound 3938]”, the “Secreted protein SEQID-00103” value was determined as 20.8 mg/1/OD.
On the same count and under the same terms, then “3939 (MKWMCSICCAAVLLAGGAAQA; listed as Bacillus subtilis) [compound 3939]”, with 9.4 mg/1/OD.
With “3940 (MKKELLASLVLCLSLSPLVSTNEVFA; listed as Bacillus subtilis) [compound 3940]”, the “Secreted protein SEQID-00105” value was 83.4 mg/1/OD and the “Secreted protein SEQID-00341” value was 80.2 mg/1/OD.
In the case of “3941 (MNFKKTVVSALSISALALSVSGVASA; listed as Bacillus subtilis) [compound 3941]”, the “Secreted protein SEQID-00103” value came out at 14.3 mg/1/OD and the “Secreted protein SEQID-00105” value was found to be 152.7 mg/1/OD.
Consider “3942 (MKRLFMKASLVLFAVVFVFAVKGAPAKA; listed as Bacillus subtilis) [compound 3942]”, for which the “Secreted protein SEQID-00103” value is 20 mg/1/OD.
Take “3943 (MLKKKWMVGLLAGCLAAGGFSYNAFA; listed as Bacillus subtilis) [compound 3943]”: the “Secreted protein SEQID-00341” value amounted to 132.5 mg/1/OD and the “Secreted protein SEQID-00352” value is given as 2.23 mg/1/OD.
Consider “3944 (MKKIGLLFMLCLAALFTIGFPAQQADA; listed as Bacillus subtilis) [compound 3944]”, for which the “Secreted protein SEQID-00103” value is reported as 13.3 mg/1/OD.
Consider “3945 (MRFTKVVGFLSVLGLAAVFPLTAQA; listed as Bacillus subtilis) [compound 3945]”, for which the “Secreted protein SEQID-00105” value was 124.3 mg/1/OD.
In the case of “3946 (MKQGKFSVFLILLLMLTLVVAPKGKAEA; listed as Bacillus subtilis) [compound 3946]”, the “Secreted protein SEQID-298” value came out at 3.9 mg/1/OD.
Turning to “3947 (MTLTKLKMLSMLTVMIASLFIFSSQALA; listed as Bacillus subtilis) [compound 3947]”, the “Secreted protein SEQID-00338” value is recorded as 6.3 mg/1/OD.
As for “3948 (MKRKLLSSLAISALSLGLLVSAPTASFAAE; listed as Bacillus subtilis) [compound 3948]”, the “Secreted protein, Other SEQ IDs: SEQID-00404” value (leader peptide fused to SEQID-00404, B. subtilis culture supernatant) was 2.5 mg/1/OD.
Turning to “3949 (MTKKAWFLPLVCVLLISGWLAPAASASA; listed as Bacillus subtilis) [compound 3949]”, the “Secreted protein SEQID-00352” value was 2.26 mg/1/OD.
Consider “3950 (MRKSLITLGLASVIGTSSFLIPFTSKTASA; listed as Bacillus subtilis) [compound 3950]”, for which the “Secreted protein SEQID-00103” value is reported as 14.6 mg/1/OD and the “Secreted protein SEQID-00105” value came out at 124.4 mg/1/OD.
For “3951 (MKRIRIPMTLALGAALTIAPLSFASA; listed as Bacillus subtilis) [compound 3951]”, the “Secreted protein SEQID-00103” value is recorded as 17.7 mg/1/OD.
Still for that read-out and setting: the figure for “3952 (MRKYTVIASILLSFLSVLSGG; listed as Bacillus subtilis) [compound 3952]” is 26.2 mg/1/OD.
For the substance “3953 (MKKLLTVMTMAVLTAGTLLLPAQSVTPAAHA; listed as Bacillus subtilis) [compound 3953]”, the “Secreted protein, Other SEQ IDs: SEQID-403” value (leader peptide fused to SEQID-403, B. subtilis culture supernatant) is 3.4 mg/1/OD.
Turning to “3954 (MNKPTKLFSTLALAAGMTAAAAGGAGTIHA; listed as Bacillus subtilis) [compound 3954]”, the “Secreted protein SEQID-00105” value amounted to 131 mg/1/OD.
In the case of “3955 (MVKSFRMKALIAGAAVAAAVSAGAVSDVPAAKVLQPTAAYA; listed as Bacillus subtilis) [compound 3955]”, the “Secreted protein SEQID-00352” value came to 3.7 mg/1/OD.
For “3956 (MKWNNMLKAAGIAVLLFSVFAYAAPSLKAVQA; listed as Bacillus subtilis) [compound 3956]”, the “Secreted protein SEQID-00338” value was 7.9 mg/1/OD, the “Secreted protein SEQID-00341” value came to 41.5 mg/1/OD and the “Secreted protein SEQID-00352” value stood at 0.95 mg/1/OD.
